Anti-infective test results gathered from many reports (values: NIAID ChemDB through PubChem).

All rows: tests in culture; organism: Staphylococcus aureus

Two numbers with a dash give a range or band. MIC50, MIC90 and the like: level of inhibition, or share of isolates inhibited. Neighbouring rows are from separate reports.

{"smiles": "O=C1O[C@@H](CNc2ccon2)CN1c1ccc(-n2cnc(CO)c2)c(F)c1", "strain": "004 (methicillin quinolone-resistant)", "endpoint": "MIC", "value": "2 µg/mL"}
{"smiles": "COC(CNc1cc2c(cc1F)c(=O)c(C(=O)O)cn2C1CC1)OC", "strain": "ATCC 6538P", "endpoint": "MIC", "value": ">100 µg/mL"}
{"smiles": "CC1COc2c(N3CCN(C)CC3)c(F)cc3c(=O)c(C(=O)O)cn1c23", "strain": "Methicillin-susceptible", "endpoint": "MIC90", "value": "0.25–2 µg/mL"}
{"smiles": "CN(C)CCCNc1cc2c(cc1F)c(=O)c(C(=O)O)cn2C1CC1", "strain": "ATCC 5278 (methicillin-resistant)", "endpoint": "MIC", "value": ">100 µg/mL"}
{"smiles": "CC[C@H]1OC(=O)[C@H](C)C(=O)[C@H](C)[C@@H](O[C@@H]2O[C@H](C)C[C@H](N(C)C)[C@H]2O)[C@@]2(C)C[C@@H](C)C(=NC(C)=O)[C@H](C)[C@@H](OC/C(=N\\OCc3ccc(-n4cccn4)nc3)CO2)[C@]1(C)O", "strain": "25 strains", "endpoint": "MIC50", "value": "0.125 µg/mL"}
{"smiles": "CCCCCCCCCCCC[N+](C)(C)CSCCCCCC", "strain": "ATCC 6538", "endpoint": "MIC", "value": "13.1 µM"}
{"smiles": "COCCNc1cc2c(cc1F)c(=O)c(C(=O)O)cn2C1CC1", "strain": "ATCC 5278 (methicillin-resistant)", "endpoint": "MIC", "value": "3.12 µg/mL"}
{"smiles": "N#Cc1ccc(N2CCN(c3ccc(N4C[C@H](CNc5cnccn5)OC4=O)cc3F)CC2)nn1", "strain": "078 (oxford)", "endpoint": "MIC", "value": "1 µg/mL"}
{"smiles": "CO/N=C1\\CN(c2nc3c(cc2F)c(=O)c(C(=O)O)cn3C2CC2)CC1CN", "strain": "9 isolates (methicillin-susceptible)", "endpoint": "MIC50", "value": "0.063 µg/mL"}
{"smiles": "CCCCCCCCCCCC[N+](C)(C)COCCCCCCC", "strain": "ATCC 6538", "endpoint": "MBC", "value": "2.64 µM"}
{"smiles": "CC(C)(C)n1cc(C(=O)O)c(=O)c2cc(F)c(N3C[C@H]4C[C@@H]3CN4)nc21", "strain": "30 strains (methicillin-susceptible)", "endpoint": "MIC50", "value": "0.12 µg/mL"}
{"smiles": "CCCCCCCCCCCC[N+](C)(C)COC1CCCCC1", "strain": "ATCC33592", "endpoint": "MBC", "value": "13.8 µM"}
{"smiles": "CNc1c(F)cc2c(=O)c(C(=O)O)cn(-c3cc(N)c(F)cc3F)c2c1C", "strain": "27 isolates (methicillin-resistant)", "endpoint": "MIC50", "value": "0.015 µg/mL"}
{"smiles": "CCCCCCCCCCCC[N+](C)(C)COC(C)C", "strain": "ATCC 6538", "endpoint": "MIC", "value": "9.32 µM"}
{"smiles": "CC(C)(C)n1cc(C(=O)O)c(=O)c2cc(F)c(N3C[C@H]4C[C@@H]3CN4)nc21", "strain": "30 strains (methicillin-resistant)", "endpoint": "MIC90", "value": "0.5 µg/mL"}
{"smiles": "CCCCCCCC[N+](C)(C)COC(C)CCC", "strain": "ATCC33592", "endpoint": "MBC", "value": "17 µM"}
{"smiles": "Cc1c(NCCCO)c(F)cc2c(=O)c(C(=O)O)cn(-c3cc(N)c(F)cc3F)c12", "strain": "27 isolates", "endpoint": "MIC90", "value": "0.03 µg/mL"}
{"smiles": "CCCCCCCC[N+](C)(C)COCC(CC)CCCC", "strain": "ATCC33592", "endpoint": "MBC", "value": "74 µM"}
{"smiles": "CC[C@H]1OC(=O)[C@H](C)C(=O)[C@H](C)[C@@H](O[C@@H]2O[C@H](C)C[C@H](N(C)C)[C@H]2O)[C@](C)(OC)C[C@@H](C)C(=O)[C@H](C)[C@H]2N(CCCCn3cnc(-c4cccnc4)c3)C(=O)O[C@]12C", "strain": "25 strains", "endpoint": "MIC90", "value": "8 µg/mL"}
{"smiles": "CCOCCCNc1cc2c(cc1F)c(=O)c(C(=O)O)cn2C1CC1", "strain": "ATCC 5278 (methicillin-resistant)", "endpoint": "MIC", "value": ">100 µg/mL"}
{"smiles": "CCCCCCCCCCCC[N+](C)(C)CSCCC", "strain": "ATCC 6538", "endpoint": "MBC", "value": "15 µM"}
{"smiles": "NCCCCCCCCNc1cc2c(cc1F)c(=O)c(C(=O)O)cn2C1CC1", "strain": "ATCC 5278 (methicillin-resistant)", "endpoint": "MIC", "value": ">100 µg/mL"}
{"smiles": "CC[C@H]1OC(=O)[C@H](C)C(=O)[C@H](C)[C@@H](O[C@@H]2O[C@H](C)C[C@H](N(C)C)[C@H]2O)[C@](C)(OC)C[C@@H](C)C(=O)[C@H](C)[C@H]2N(CCCCn3cnc(-c4cccnc4)c3)C(=O)O[C@]12C", "strain": "25 strains", "endpoint": "MIC90", "value": ">64 µg/mL"}
{"smiles": "O=C1O[C@@H](COc2ccon2)CN1c1ccc(N2CCC(O)CC2)c(F)c1", "strain": "078 (oxford)", "endpoint": "MIC", "value": "4 µg/mL"}
{"smiles": "CCCCCCCCCCCC[N+](C)(C)COC(C)CCC", "strain": "ATCC 6538", "endpoint": "MBC", "value": "14.3 µM"}
{"smiles": "CCOC(CC(C)(C)CNc1cc2c(cc1F)c(=O)c(C(=O)O)cn2C1CC1)OCC", "strain": "ATCC 6538P", "endpoint": "MIC", "value": ">100 µg/mL"}

4 of the rows above, restated:

{"smiles": "CCCCCCCCCCCC[N+](C)(C)CSCCCCCC", "strain": "ATCC 6538", "endpoint": "MIC", "value": "13.1 µM"}
{"smiles": "CCCCCCCC[N+](C)(C)COC(C)CCC", "strain": "ATCC33592", "endpoint": "MBC", "value": "17 µM"}
{"smiles": "N#Cc1ccc(N2CCN(c3ccc(N4C[C@H](CNc5cnccn5)OC4=O)cc3F)CC2)nn1", "strain": "078 (oxford)", "endpoint": "MIC", "value": "1 µg/mL"}
{"smiles": "CC[C@H]1OC(=O)[C@H](C)C(=O)[C@H](C)[C@@H](O[C@@H]2O[C@H](C)C[C@H](N(C)C)[C@H]2O)[C@@]2(C)C[C@@H](C)C(=NC(C)=O)[C@H](C)[C@@H](OC/C(=N\\OCc3ccc(-n4cccn4)nc3)CO2)[C@]1(C)O", "strain": "25 strains", "endpoint": "MIC50", "value": "0.125 µg/mL"}